Compound potency records, mixed from different reports. Data source: NIAID ChemDB in PubChem.

All rows: toxicity to cultured cells; cells: HEL; endpoint: CC50

Rows are shuffled and stem from different studies. CCn: concentration that lowers growth or viability of the cells by n%.

compound,result
Cc1ccc(C)c(CSc2ccc(Cl)c[n+]2[O-])c1,>100 µg/mL
Cc1cc(-c2ccccc2)c2ncc(CSCCc3ccccc3)n2c1,33 µg/mL
Cc1ccc(C)c(C(c2ccccc2)S(=O)(=O)c2cccc[n+]2[O-])c1,>20 µg/mL
CCCCCC#Cc1nc2c(N)ncnc2n1[C@H]1C[C@H](O)[C@@H](CO)O1,6 µg/mL
CCCCC#Cc1cn(S(=O)(=O)c2ccc(C)cc2)c(=O)[nH]c1=O,61 µM
Cc1ccccc1CS(=O)(=O)c1c(C)ccc[n+]1[O-],17 µg/mL
CCCCCCCc1cc2cn(CCCCC)c(=O)nc2o1,>200 µM
Cc1cc(-c2cccc(F)c2)c2ncc(CSCCc3ccccc3)n2c1,35 µg/mL
CC(Cl)(c1ccccc1)S(=O)(=O)c1cccc[n+]1[O-],>20 µg/mL
Cc1cc(-c2ccc(O)cc2)c2ncc(CSCCc3ccccc3)n2c1,13.7 µg/mL
CCCCCCCC#Cc1c[nH]c(=O)[nH]c1=O,67 µM
CCCCCCCc1cc2cn(C(CC)CC)c(=O)nc2o1,>200 µM
Cc1cc(-c2cccc(C#N)c2)cn2c(CSCCc3ccccc3)cnc12,>50 µg/mL
CC(C)c1ccc(C(C)C)c(CS(=O)(=O)c2cccc[n+]2[O-])c1,6.4 µg/mL
CCCCCC#Cc1c[nH]c(=O)[nH]c1=O,114 µM
CCCCCCCc1cc2cn(C3CCCO3)c(=O)nc2o1,46 µM
CCCCCC#Cc1cn(S(=O)(=O)c2ccc(C)cc2)c(=O)[nH]c1=O,134 µM
CCCCc1cc2cnc(OC3CCCC3)nc2o1,108 µM
Cc1c(Cl)ccc(C(C)S(=O)c2cccc[n+]2[O-])c1Cl,0.09 µg/mL
CCCCCn1cc2cc(CCCC)oc2nc1=O,>200 µM
Cc1ccc(C)c(C(C)S(=O)(=O)c2cccc[n+]2[O-])c1,50 µg/mL
CCCCCCC#Cc1cn(S(=O)(=O)c2ccc(C)cc2)c(=O)[nH]c1=O,63 µM
COc1ccc[n+]([O-])c1SCc1cc(C)ccc1C,2 µg/mL
CC(C)C[C@H](NC(=O)n1nnc2ccccc21)C(=O)NCC1CCCCC1,156 µg/mL
CCCCCCCCCCc1cc2cn(C3CCCO3)c(=O)nc2o1,>200 µM
O=C(NC(c1ccccc1)c1ccccc1)[C@H](Cc1ccccc1)NC(=O)n1nnc2ccccc21,17.3 µg/mL
CCCCCCCCCCc1cc2cn(CC3CCCCC3)c(=O)nc2o1,>200 µM
O=S(=O)(Cc1ccccc1)c1cccc[n+]1[O-],>50 µg/mL
Cc1c(Br)cc(Br)c2ncc(CSCc3ccc(Cl)cc3Cl)n12,>50 µg/mL
O=C(NC1CCCCC1)[C@H](Cc1ccccc1)NC(=O)n1nnc2ccccc21,33.6 µg/mL
O=[N+]([O-])c1ccc(CS(=O)(=O)c2cccc[n+]2[O-])cc1,7.6 µg/mL
CCCCCCCCCCc1cc2cn(Cc3ccc(OC)cc3)c(=O)nc2o1,>200 µM
[O-][n+]1c(Cl)cccc1SCc1ccccc1,48 µg/mL
Cc1c(Br)cc(Br)c2ncc(CSCc3cccc(C(F)(F)F)c3)n12,>50 µg/mL
Oc1cccnc1SCc1ccccc1,35 µg/mL
CCCCCc1nc2c(N)ncnc2n1[C@H]1C[C@H](O)[C@@H](CO)O1,30 µg/mL
Cc1c(Br)cc(Br)c2ncc(CSCc3ccccc3Cl)n12,43 µg/mL
O=S(=O)(Cc1ccccc1I)c1cccc[n+]1[O-],25 µg/mL
CC(C)[C@H](NC(=O)n1nnc2ccccc21)C(=O)NC1CCCCC1,90 µg/mL
CCCC#Cc1nc2c(N)ncnc2n1[C@H]1C[C@H](O)[C@@H](CO)O1,10 µg/mL
Cc1c(Br)cc(Br)c2ncc(CSCCCc3ccccc3)n12,>50 µg/mL
Cc1ccc[n+]([O-])c1SC(C)c1ccccc1,60 µg/mL
C/C=C\c1nc2c(N)ncnc2n1[C@H]1C[C@H](O)[C@@H](CO)O1,>50 µg/mL